Pooled drug test results. Numbers come from NIAID ChemDB, via PubChem.

Common to all: whole-cell or culture tests; agent: HIV-1; measure: EC50

ECn is the concentration giving n% inhibition of infection, replication or growth.

O=C(N/N=C/c1ccsc1)c1c[nH]c2ccccc12 ; cell line: HeLa ; read by: cell fusion / luminescence ; result: >112 µM
O=C(C(=O)N1CCN(C(=O)c2ccccc2)CC1)c1c[nH]c2c(-c3nn[nH]n3)ncc(Cl)c12 ; cell line: HeLa ; read by: luciferase ; result: <1 µM
Cn1c(=O)n(C)c2cc(/C=N/NC(=O)Nc3ccccc3)ccc21 ; cell line: HeLa ; read by: cell fusion / luminescence ; result: >112 µM
Cc1cn(CCCCCCCCCCCCOc2ccc([N+](=O)[O-])cc2Cc2cc([N+](=O)[O-])ccc2OCCCCCCCCCCCCn2cc(C)c(=O)[nH]c2=O)c(=O)[nH]c1=O ; cell line: CEM + CEM-SS ; read by: cytopathic effect / XTT ; strain: RF ; result: >25 µg/mL
O=C(O)/C(O)=C/c1cc(Oc2ccccc2)ncn1 ; cell line: MT-4 ; read by: cytopathic effect / MTT ; strain: IIIB ; result: >77 µM
O=C(N/N=C/c1ccccc1)NC1CCCCC1 ; cell line: HeLa ; read by: cell fusion / luminescence ; result: >112 µM
O=C1CCC(=O)N1CCCCCCc1ccc2c3ccccc3c3ccccc3c2c1 ; cell line: PBMC ; read by: p24 ; strain: IIIB ; result: 0.8 µM
Cc1cn([C@@]2(C)CO[C@@H](CO)O2)c(=O)[nH]c1=O ; cell line: MT-4 ; result: >100 µM
CC1(c2nc3ccccc3[nH]2)CCC(C(=O)O)C(C)(C)O1 ; cell line: CEM + CEM-SS ; strain: RF ; result: >200 µM
CC1=C(C)[C@@H](O)[C@@H]2/C=C/C[C@H](C)/C=C(\C)C(=O)c3ccc([nH]3)[C@]23C(=O)N[C@@H](Cc2c[nH]c4ccccc24)C13 ; cell line: MT-4 ; read by: p24 / ELISA / antigen ; strain: LAI ; result: 0.11 µM
CS[C@@]12CC3C(=O)CC[C@H](O)[C@H]3N1C(=O)[C@@]13C[C@H]4C(=O)C[C@@H](S1)[C@H](O)[C@H]4N3C2=O ; cell line: 293T ; read by: luciferase / luminescence ; strain: NL4-3 ; result: 16.6 µM
Cc1nc(/C(O)=C/c2cc(CCc3ccccc3)ncn2)cs1 ; cell line: MT-4 ; read by: cytopathic effect / MTT ; strain: IIIB ; result: >12.5 µg/mL
CC1(c2nc3cc(Cl)c(Cl)cc3[nH]2)CCC(C(=O)O)C(C)(C)O1 ; cell line: CEM + CEM-SS ; strain: RF ; result: >20 µM
C=C(C)[C@@H]1CC[C@]2(C(=O)NCCCCCCCC(=O)N[C@@H](CC(C)C)[C@@H](O)CC(=O)O)CC[C@]3(C)[C@H](CC[C@@H]4[C@@]5(C)CC[C@H](O)C(C)(C)[C@@H]5CC[C@]43C)[C@@H]12 ; cell line: MT-4 ; read by: cytopathic effect / MTT ; strain: LAI ; result: 0.04 µM
O=C(/C=C(\O)c1c[nH]c2ccc(Cl)cc12)c1nn[nH]n1 ; cell line: MT-4 ; read by: cytopathic effect / MTT ; strain: IIIB ; result: >35 µM
Cc1cn([C@H]2C[C@H](N=[N+]=[N-])[C@@H](CO)O2)c(=O)[nH]c1=O ; cell line: C8166 ; read by: p24 / ELISA ; strain: NL4-3 ; result: 0.00075 µM
C=CCOCn1c(Cc2c(F)c(F)cc(F)c2F)c(CC)c(=O)[nH]c1=O ; cell line: MT-4 ; read by: MTT ; strain: EFV-resistant (K103R V179D P225H) ; result: >100 µM
C[C@@H]1CN(C(=O)c2ccccc2)CCN1C(=O)C(=O)c1c[nH]c2c(-c3ccc(Cl)cc3)nccc12 ; cell line: HeLa ; read by: luciferase ; result: <1 µM
Cc1ccnc(SC(F)(F)c2nc3ccccc3o2)n1 ; changes: RT-T139I ; cell line: CEM + CEM-SS ; read by: cytopathic effect / XTT ; strain: CALO(RT-T139I) ; result: 0.43 µM
O=C(O)/C(O)=C/c1ccc(CCc2ccccc2)cn1 ; cell line: MT-4 ; read by: cytopathic effect / MTT ; strain: IIIB ; result: >74 µM
NC(N)=NCCC[C@H](NC(=O)CCCCCNC(=O)CN(CCNC(=O)CN(CCNC(=O)OCc1ccccc1)C(=O)Cn1cnc2c(N)ncnc21)C(=O)Cn1cnc2c(=O)[nH]c(N)nc21)C(=O)O ; cell line: PBMC/IIIB + PBMC ; read by: cytopathic effect / MTT ; result: >200 µM
O=C(O)[C@H]1O[C@@H](Oc2cc(O)cc(/C=C/c3ccc(O)cc3)c2)[C@H](O)[C@@H](O)[C@@H]1O ; cell line: PBMC ; read by: RT activity ; strain: IIIB ; result: >300 µM
COC(=O)[C@H](CCCN=C(N)N)NC(=O)CCCCCNC(=O)CN(CCNC(=O)CN(CCNC(=O)OCc1ccccc1)C(=O)Cn1cnc2c(N)ncnc21)C(=O)Cn1cnc2c(=O)[nH]c(N)nc21 ; cell line: PBMC/IIIB + PBMC ; read by: cytopathic effect / MTT ; result: 1 µM
C[C@]1(n2ccc(=O)[nH]c2=O)CO[C@@H](CO)O1 ; cell line: MT-4 ; result: >100 µM
CS[C@@]12CC3=CC=C[C@H](O)[C@H]3N1C(=O)[C@@]13C[C@@H]4[C@@H]([C@@H](O)[C@@H](C[C@@H]4O)S1)N3C2=O ; cell line: 293T ; read by: luciferase / luminescence ; strain: NL4-3 ; result: 11.5 µM
Cn1nc(NS(C)(=O)=O)c2c(Cl)ccc(-n3c([C@H](Cc4cc(F)cc(F)c4)NC(=O)Cn4nc(C(F)F)c5c4C(F)(F)[C@@H]4C[C@H]54)nc4cc(-c5ccc(F)c(C(=O)O)c5)ccc4c3=O)c21 ; cell line: MT-2 ; read by: luminescence ; strain: NL4-3 ; result: 10 µM
O=C(C(=O)N1CCN(C(=O)c2ccccc2)CC1)c1c[nH]c2c(C(=O)c3cccs3)ccnc12 ; cell line: HeLa ; read by: luciferase ; result: <1 µM
Cn1nc(NS(C)(=O)=O)c2c(Cl)ccc(-n3c([C@H](Cc4cc(F)cc(F)c4)NC(=O)Cn4nc(C(F)F)c5c4C(F)(F)[C@@H]4C[C@H]54)nc4nc(-c5csc(S(C)(=O)=O)n5)ccc4c3=O)c21 ; cell line: MT-2 ; read by: luciferase ; strain: NL4-3 ; result: 0.000065 µM
CC(C)(C)OC(=O)N[C@@H](Cc1ccccc1)C(=O)NCC[C@@H](CO)NC(=O)[C@H](Cc1ccccc1)NC(=O)OC(C)(C)C ; cell line: MOLT-4 ; read by: p24 ; strain: IIIB ; result: 3.6 µM
C=C1[C@@H](C)C2[C@H](Cc3c[nH]c4ccccc34)NC(=O)[C@]23c2ccc([nH]2)C(=O)[C@@H](C)C[C@@H](C)C/C=C/[C@H]3[C@@H]1O ; cell line: MT-4 ; read by: p24 / ELISA / antigen ; strain: LAI ; result: 0.34 µM
FC(F)(Sc1ncccn1)c1nc2ccccc2o1 ; changes: RT-L100I ; cell line: CEM + CEM-SS ; read by: cytopathic effect / XTT ; strain: OC(RT-L100I) ; result: 4.08 µM
C[C@]1(n2ccc(N)nc2=O)CO[C@@H](CO)O1 ; cell line: MT-4 ; result: >100 µM
COc1cccc(-c2ccnc3c(C(=O)C(=O)N4CCN(C(=O)c5ccccc5)CC4)c[nH]c23)n1 ; cell line: HeLa ; read by: luciferase ; result: <1 µM
O=C(Cc1ccccc1)N/N=C/C=C/c1ccco1 ; cell line: HeLa ; read by: cell fusion / luminescence ; result: >112 µM
CS[C@@]12CC3=CC=C[C@H](O)[C@H]3N1C(=O)[C@]13C[C@H]4C(=O)[C@H](C[C@H](O)[C@H]4N1C2=O)S3 ; cell line: 293T ; read by: luciferase / luminescence ; strain: NL4-3 ; result: 10.7 µM
CCc1c(Cc2ccccc2)n2c(nc1=O)SCC2OCCO ; cell line: MT-4 ; read by: cytopathic effect / MTT ; strain: IIIB ; result: >100 µM
Cn1nc(NS(C)(=O)=O)c2c(Cl)ccc(-n3c([C@H](Cc4cc(F)cc(F)c4)NC(=O)Cn4nc(C(F)F)c5c4C(F)(F)[C@@H]4C[C@H]54)nc4nc(-c5cnc(C(C)(C)O)s5)ccc4c3=O)c21 ; cell line: MT-2 ; read by: luciferase ; strain: NL4-3 ; result: 0.000056 µM
CCOCn1c(Cc2cccc(F)c2)c(CC)c(=O)[nH]c1=O ; changes: K103N + Y181C ; cell line: MT-4 ; read by: MTT ; strain: A17 ; result: 68 µM
O=C(O)/C(O)=C/c1cc(OCc2ccccc2)ccn1 ; cell line: MT-4 ; read by: cytopathic effect / MTT ; strain: IIIB ; result: >13.8 µM
CCc1c(Cc2cccc3ccccc23)n2c(nc1=O)SCC2OCCO ; cell line: MT-4 ; read by: cytopathic effect / MTT ; strain: IIIB ; result: >100 µM
CC(O)(C(=O)NN=C1CCCC1)c1ccccc1 ; cell line: HeLa ; read by: cell fusion / luminescence ; result: >112 µM
NC(N)=NCCC[C@H](NC(=O)CCNC(=O)CN(CCNC(=O)CN(CCNC(=O)OCc1ccccc1)C(=O)Cn1cnc2c(N)ncnc21)C(=O)Cn1cnc2c(=O)[nH]c(N)nc21)C(=O)O ; cell line: PBMC/IIIB + PBMC ; read by: cytopathic effect / MTT ; result: 11 µM
O/C(=C\c1cc(CCc2ccccc2)ncn1)c1nccs1 ; cell line: MT-4 ; read by: cytopathic effect / MTT ; strain: IIIB ; result: >12.5 µg/mL
C[C@H]1C/C=C/[C@H]2[C@@H]3O[C@]3(C)[C@@H](C)C3[C@H](Cc4c[nH]c5ccccc45)NC(=O)[C@]32c2ccc([nH]2)C(=O)[C@H](C)C1 ; cell line: MT-4 ; read by: p24 / ELISA / antigen ; strain: LAI ; result: 0.68 µM
CCCc1cc(=O)oc2c1=C1OC(C)(C)CCC1C1O[C@@H](C)[C@H](C)[C@H](O)C=21 ; cell line: CEM + CEM-SS ; read by: cytopathic effect / MTT ; result: 1.6 µM
Cc1cn([C@H]2C=C[C@@H](CO)O2)c(=O)[nH]c1=O ; cell line: CEM ; read by: cytopathic effect ; result: 0.65 µM
C/C1=C\[C@@H](C)C/C=C/[C@H]2C=C(CO)[C@@H](C)C3[C@H](Cc4c[nH]c5ccccc45)NC(=O)[C@]32c2ccc([nH]2)C1=O ; cell line: MT-4 ; read by: p24 / ELISA / antigen ; strain: LAI ; result: 0.48 µM
CCCc1cc(=O)oc2c3c(c4c(c12)OC(C)(C)C=C4)O[C@H](C)[C@@H](C)C3=O ; cell line: CEM + CEM-SS ; read by: cytopathic effect / MTT ; result: 0.68 µM
CC1(c2nc3ccccc3[nH]2)CCC(C#N)C(C)(C)O1 ; cell line: CEM + CEM-SS ; strain: RF ; result: >0.063 µM
NC(N)=NCCC[C@H](NC(=O)CCCCCNC(=O)CN(CCNC(=O)CN(CCNC(=O)OCc1ccccc1)C(=O)Cn1cnc2c(=O)[nH]c(N)nc21)C(=O)Cn1cnc2c(N)ncnc21)C(=O)O ; cell line: PBMC/IIIB + PBMC ; read by: cytopathic effect / MTT ; result: >200 µM
O/C(=C\c1cc(CCc2ccccc2)ncn1)c1cnccn1 ; cell line: MT-4 ; read by: cytopathic effect / MTT ; strain: IIIB ; result: >66 µM
O=C(N[C@@H](Cc1ccccc1)C(=O)NCC[C@@H](CO)NC(=O)[C@H](Cc1ccccc1)NC(=O)OCC1c2ccccc2-c2ccccc21)OCC1c2ccccc2-c2ccccc21 ; cell line: MOLT-4 ; read by: p24 ; strain: IIIB ; result: 0.11 µM
O=C(O)/C=C/c1ccc(N=Nc2c(S(=O)(=O)O)cc3cc(NC(=O)Nc4ccc5c(O)c(N=Nc6ccc(/C=C/C(=O)O)cc6)c(S(=O)(=O)O)cc5c4)ccc3c2O)cc1 ; cell line: CEM + CEM-SS ; read by: cytopathic effect / XTT ; strain: RF ; result: 2.5 µM
CCOC(CSc1nc(Cc2cccc3ccccc23)c(CC)c(=O)[nH]1)OCC ; cell line: MT-4 ; read by: cytopathic effect / MTT ; strain: IIIB ; result: >100 µM
Cc1cn(CCCCCCCCCCCCOc2ccc3cc2Cc2cc(ccc2OCCCCCCCCCCCCn2cc(C)c(=O)[nH]c2=O)N=Cc2cccc(n2)C=Nc2ccc(OCCCCCCCCCCCCn4cc(C)c(=O)[nH]c4=O)c(c2)Cc2cc(ccc2OCCCCCCCCCCCCn2cc(C)c(=O)[nH]c2=O)N=Cc2cccc(n2)C=N3)c(=O)[nH]c1=O ; cell line: CEM + CEM-SS ; read by: cytopathic effect / XTT ; strain: RF ; result: >25 µg/mL
C=C(C)[C@@H]1CC[C@]2(C(=O)NCCCCCCCC(=O)Nc3ccccc3C(=O)O)CC[C@]3(C)[C@H](CC[C@@H]4[C@@]5(C)CC[C@H](O)C(C)(C)[C@@H]5CC[C@]43C)[C@@H]12 ; cell line: CEM ; read by: cytopathic effect / MTT ; strain: LAI ; result: >3 µM
CCOC(CSc1nc(Cc2ccccc2)c(C(C)C)c(=O)[nH]1)OCC ; cell line: MT-4 ; read by: cytopathic effect / MTT ; strain: IIIB ; result: >100 µM
C=C(C)COCn1c(Cc2cc(F)ccc2F)c(CC)c(=O)[nH]c1=O ; cell line: MT-4 ; read by: MTT ; strain: N119 (Y181C) ; result: 25 µM
O=C(Cc1ccccc1)N/N=C/c1ccccc1F ; cell line: HeLa ; read by: cell fusion / luminescence ; result: >112 µM
Cn1nc(NS(C)(=O)=O)c2c(Cl)ccc(-n3c([C@H](Cc4cc(F)cc(F)c4)NC(=O)Cn4nc(C(F)F)c5c4C(F)(F)[C@@H]4C[C@H]54)nc4nc(-c5cc(C(F)(F)F)cc(C(F)(F)F)n5)ccc4c3=O)c21 ; cell line: MT-2 ; read by: luciferase ; strain: NL4-3 ; result: 0.000025 µM
CS[C@@]1(Cc2ccccc2)NC(=O)[C@@](O)(Cc2ccccc2)NC1=O ; cell line: 293T ; read by: luciferase / luminescence ; strain: NL4-3 ; result: 5.9 µM
O=C(O)c1cc(-n2cccc2)ccc1Cl ; cell line: MT-2 ; read by: p24 ; strain: IIIB ; result: 2.1 µM
CCOC1CSc2nc(Cc3ccccc3)c(CC)c(=O)n21 ; cell line: MT-4 ; read by: cytopathic effect / MTT ; strain: IIIB ; result: >100 µM

Lines come from different laboratories, so protocols vary.